Measured values published in PMC3877894, “Cytotoxic, Cytostatic and HIV-1 PR Inhibitory Activities of the Soft Coral Litophyton arboreum” (Marine Drugs, 2013).
Several values for one entry are separate records, joined by “and”; a condition that tells them apart may be missing. Equal entries are not always repeated.

Columns and labels:
HeLa cells = experiment: XTT cytotoxicity assay in HeLa cells; conditions: IC50 in Vero cell line / IC50 in HeLa
Protocol: (§1) HeLa, U937, and Vero cell lines were maintained in culture flasks containing Eagle’s Minimum Essential Medium supplemented with 10% heat-inactivated FBS and 1% antibiotics (100 U/mL penicillin, 100 μg/mL streptomycin, and 250 μg/mL fungizone). The cells were grown at 37 °C in a humidified incubator set at 5% CO2. Cells were subcultured after they formed a monolayer on the flask. The cells were detached by treating them with trypsin-EDTA (0.25% trypsin containing 0.01% EDTA) for 10 minutes and then by adding complete medium to inhibit the reaction. Cytotoxicity was measured by the XTT method using the Cell Proliferation Kit II. The method described by Zheng et al. was used to perform the assay. Cells were seeded (100 μL) in a 96-well microtiter plate (concentration 1 × 10^5 cells/mL). The plate was then incubated for 24 h at 37 °C and 5% CO2 to allow the cells to attach to the bottom of the wells. The compounds were each prepared to a stock solution of 20 mg/mL and added to the microtiter plate. Serial dilutions were made to range from a concentration of 100 μg/mL–0.7 μg/mL for each compound. The microtiter plate was incubated for a further 72 h. The control wells included vehicle-treated cells exposed to 2% DMSO and the positive control Actinomycin D, with concentrations ranging between 0.5 μg/mL and 0.002 μg/mL. After the 72 h incubation period, the XTT reagent (50 μL) was added to a final concentration of 0.3 mg/mL and the plate was then further incubated for another 2 h. After the incubation the absorbance of the color complex was read at 490 nm with a reference wavelength set at 690 nm. […] The IC50 values were reported at ±95% confidence intervals (±95% CI). The results were analyzed using the GraphPad Prism 4 program.

U937 cells = experiment: XTT cytotoxicity assay in U937 cells; conditions: IC50 in Vero cell line / IC50 in U937
Protocol: as §1

Row | Structure (SMILES) | SI Values HeLa (HeLa cells) | SI Values U937 (U937 cells)
1 | CC1=CCCC(C)=CCC(O)(C(C)C)CCC(C)=CCC1 (stereo not shown) [Compound 1, sarcophytol M] | 0.8 | 0.75
2 | C=C1CCC(C(C)C)=CC2C1CCC2(C)O (stereo not shown) [Compound 2, alismol] | 1.6 | 
3 | C=C(CC[C@@H](C)[C@H]1CCC2C3CC=C4C[C@@H](O)CC[C@]4(C)C3CC[C@@]21C)C(C)C (stereo partly drawn) [Compound 3, 24-methylcholesta-5,24(28)-diene-3β-ol] | 2.1 | 
4 | CO[C@]1(C)CCC(C(C)C)=C[C@H]2[C@H]1CC[C@]2(C)O [Compound 4, 10-O-methyl alismoxide] | 1.3 | 1.00
5 | CCCCCCCCCCCCCCCCOC[C@@H](O)CO [Compound 6, (S)-chimyl alcohol] | 2.6 | 
6 | C=C(CCC(C)C1CCC2C3C(OC(C)=O)C=C4CC(O)CCC4(CO)C3CCC12C)C(C)C (stereo not drawn) [Compound 7, 7β-acetoxy-24-methylcholesta-5-24(28)-diene-3,19-diol] | 8.1 and 7.2 | 2.9
7 | C=C(CC[C@@H](C)[C@H]1CCC2C3C(CC[C@@]21C)[C@@]1(CO)CC[C@H](O)CC1=C[C@@H]3O)C(C)C (stereo partly drawn) [Compound 9, 24-methylcholesta-5,24(28)-diene-3β,7β,19-triol] | 1.4 | 
